EC50 data for one substance are collected here from US20210380640A1.

For this experiment, the target named is SARS-CoV-2 spike protein (SARS-CoV-2) (UniProt P0DTC2).

One may read the EC50 as the concentration at which the effect is half-maximal. Read a low EC50 as higher potency in that assay. MIT control showed an EC50 of 6.8 nM.
